Anti-infective test results gathered from many reports (values: NIAID ChemDB through PubChem).

Shared fields: enzyme or target tests; organism: HIV-1; protein: Reverse transcriptase

ICn: concentration for n% inhibition. An empty or dashed field is not shown. Rows are shuffled and stem from different studies. Fold resistance has wild type as its base. a–b is a range or a potency band.

structure,strain or isolate,changes,read by,read-out,result
CC(=O)NC(C)(C)C#Cc1ccc(NC(=O)CSc2nnnn2-c2ccc(C3CC3)cc2Cl)c(Cl)c1,WT,-,PicoGreen / fluorescence,IC50,<1 µM
COc1cc2c(cc1N)CN(c1nn3c(C4CC4)nnc3c3ccccc13)CC2,KER2008,-,RT activity / fluorescence,IC90,8.88 µM
CC(C)(C#Cc1ccc(NC(=O)CSc2nnnn2-c2ccc(C3CC3)cc2Cl)c(Cl)c1)NCc1cc[n+]([O-])cc1,WT,-,PicoGreen / fluorescence,IC50,<1 µM
CC(=O)Nc1ccc2c(c1)CN(c1nn3c(C)nnc3c3ccccc13)CC2,IIIB,-,RT activity / fluorescence,IC90,65.1 µM
CCN1c2ncc(CCOc3ccc(S(=O)(=O)c4ccc(C(=O)O)cc4)cc3C)cc2C(=O)N(C)c2cccnc21,IIIB,-,nucleotide incorporation / radiometric,IC50,<0.05 µM
CC(C)(C#Cc1ccc(NC(=O)CSc2nnnn2-c2ccc(C3CC3)cc2Cl)c(Cl)c1)OCCN1CCNCC1,-,RT-K103 Y181C,PicoGreen / fluorescence,IC50,<1 µM
CCN1c2ncc(CCOc3ccc(C(=O)Nc4ccc(C(=O)O)cc4)cc3C)cc2C(=O)N(C)c2cccnc21,IIIB,RT-K103N Y181C,nucleotide incorporation / radiometric,fold resistance,1
CC(C)(C#Cc1ccc(NC(=O)CSc2nnnn2-c2cc(C(F)(F)F)ccc2Cl)c(Cl)c1F)C(=O)NCCN1CCCC1,-,RT-K103 Y181C,PicoGreen / fluorescence,IC50,<1 µM
CCN1c2ncc(CCOc3ccc(C(=O)O)c4c3CCC4)cc2C(=O)N(C)c2ccc(Cl)nc21,-,RT-V106A,nucleotide incorporation / radiometric,fold resistance,1–10
CC(=O)NC(C)(C)C#Cc1ccc(NC(=O)CSc2nnnn2-c2cc(C(F)(F)F)ccc2Cl)c(Cl)c1,WT,-,PicoGreen / fluorescence,IC50,<1 µM
Nc1cc2c(c(N3CCOCC3)c1)CCN(c1nn3c(C4CC4)nnc3c3ccccc13)C2,KER2008,-,RT activity / fluorescence,IC90,51.3 µM
CCN1c2ncc(CCOc3ccc(-c4cc(Cl)c(C(=O)O)cc4F)cc3C)cc2C(=O)N(C)c2cccnc21,IIIB,RT-K103N Y181C,nucleotide incorporation / radiometric,fold resistance,1
c1ccc2c(c1)CCN(c1nn3c(-c4ccsc4)nnc3c3ccccc13)C2,IIIB,-,RT activity / fluorescence,IC90,>100 µM
CCN1c2ncc(CCOc3ccc(-c4ccc(CC(=O)O)c(C)c4)cc3C)cc2C(=O)N(C)c2cccnc21,IIIB,RT-K103N Y181C,nucleotide incorporation / radiometric,fold resistance,1
c1ccc2c(c1)CN(c1nn3c(C4CC4)nnc3c3ccccc13)C2,IIIB,-,RT activity / fluorescence,IC90,>100 µM
CCN1c2ncc(CCOc3ccc(CCC(=O)O)c4ccccc34)cc2C(=O)Nc2c(C)cc(F)nc21,-,RT-V106A,nucleotide incorporation / radiometric,fold resistance,1–10
CCN1c2ncc(CCOc3ccc(C(=O)NCc4ccc(C(=O)O)cc4)cc3C)cc2C(=O)N(C)c2cccnc21,IIIB,RT-K103N Y181C,nucleotide incorporation / radiometric,fold resistance,1
CCN1c2ncc(CCOc3ccc(CC(=O)O)c4ccccc34)cc2C(=O)Nc2c(C)cc(Cl)nc21,-,RT-Y188L,nucleotide incorporation / radiometric,fold resistance,>10
CNC(=O)NC(C)(C)C#Cc1ccc(NC(=O)CSc2nnnn2-c2ccc(C3CC3)cc2Cl)c(Cl)c1,WT,-,PicoGreen / fluorescence,IC50,<1 µM
CCN1c2ncc(CCOc3ccc(NC(C)=O)cc3C)cc2C(=O)N(C)c2cccnc21,IIIB,RT-K103N Y181C,nucleotide incorporation / radiometric,fold resistance,>1
CC(C)(C#Cc1ccc(NC(=O)CSc2nnnn2-c2cc(Cl)c(C3CC3)cc2Cl)c(Cl)c1)C(=O)O,WT,-,PicoGreen / fluorescence,IC50,<1 µM
Cc1nnc2c3ccccc3c(N3CCc4ncccc4C3)nn12,KER2008,-,RT activity / fluorescence,IC90,2.63 µM
CCN1c2ncc(CCOc3ccc(-c4cnc(C)c(C)c4)cc3C)cc2C(=O)N(C)c2cccnc21,IIIB,RT-K103N Y181C,nucleotide incorporation / radiometric,fold resistance,1
CCN1c2ncc(CCOc3ccc(CC(C)C(=O)O)c4ccccc34)cc2C(=O)N(C)c2ccc(Cl)nc21,-,RT-Y188L,nucleotide incorporation / radiometric,IC50,>1 µM
CC(C)(C)c1ccc(-n2nnnc2SCC(=O)Nc2ccc(NC(=O)C(C)(C)c3ccccc3)cc2Cl)c(Cl)c1,-,RT-K103 Y181C,PicoGreen / fluorescence,IC50,<1 µM
CCNC(=O)N1CCc2c(OCCc3cnc4c(c3)C(=O)N(C)c3cccnc3N4CC)ccc(C(=O)O)c2C1,WT,-,nucleotide incorporation / radiometric,IC50,<0.1 µM
O=C(O)Cc1ccc(-c2ccc(NC(=O)CSc3nnnn3-c3ccc(C4CC4)cc3Cl)c(Cl)c2)cc1,-,RT-K103 Y181C,PicoGreen / fluorescence,IC50,<1 µM
CCN1c2ncc(CCOc3ccc(-c4ccc(C)[n+]([O-])c4C)cc3C)cc2C(=O)N(C)c2cccnc21,IIIB,RT-K103N Y181C,nucleotide incorporation / radiometric,fold resistance,1

Repeating the first 2 entries:

structure | strain or isolate | changes | read by | read-out | result
CC(=O)NC(C)(C)C#Cc1ccc(NC(=O)CSc2nnnn2-c2ccc(C3CC3)cc2Cl)c(Cl)c1 | WT | - | PicoGreen / fluorescence | IC50 | <1 µM
COc1cc2c(cc1N)CN(c1nn3c(C4CC4)nnc3c3ccccc13)CC2 | KER2008 | - | RT activity / fluorescence | IC90 | 8.88 µM